Measured values from several laboratories, pooled; numbers as filed in NIAID ChemDB.

All rows: whole-cell or culture tests; organism: HIV-1; endpoint: EC50

ECn is the concentration giving n% inhibition of infection, replication or growth. Neighbouring rows are from separate reports. Two numbers with a dash give a range or band. Blank or dashed fields: not listed here.

SMILES	cell line	strain	read by	mutations	result
O=C(COc1ccc(Cl)cc1C(=O)c1ccccc1)Nc1ccc2cn[nH]c2c1	MT-4	Nevirapine-resistant (RT Y181C)	cytopathic effect / propidium iodide	RT-Y181C	0.011–0.1 µM
Cc1cccc(Cl)c1OCCNc1ccc(-c2cnc(C)c([C@H](OC(C)(C)C)C(=O)O)c2N2CCC(C)(C)CC2)nc1	MT-2	NL4-3	luminescence		0.0016 µM
N#CC1=CC2Nc3ccccc3C2N(c2ccc([N+](=O)[O-])cc2)C1=O	HeLa	B-HXB2	GFP / fluorescence		0.25 µM
CC(C)C1=C2[C@H]3CC[C@@H]4[C@@]5(C)CC[C@H](OC(=O)[C@H]6C[C@@H](C(=O)O)C6(C)C)C(C)(C)[C@@H]5CC[C@@]4(C)[C@]3(C)CC[C@@]2(CCNCc2ccccc2Cl)CC1=O	MT-2	92HT599	p24 / ELISA		<1 µM
CC1(C)CC=C(c2cn(-c3nccc(C(=O)NC4CCC(N5CC6CCC(C5)O6)CC4)n3)c3ccc(F)c([C@H](OC(C)(C)C)C(=O)O)c23)CC1	MT-4	NL4-3	luminescence	T124N	0.0047 µM
CC(C)C1=C2[C@H]3CC[C@@H]4[C@@]5(C)CC[C@H](OC(=O)[C@H]6C[C@@H](C(=O)O)C6(C)C)C(C)(C)[C@@H]5CC[C@@]4(C)[C@]3(C)CC[C@@]2(CC(=O)NCC(C)(NC(=O)c2ccc(Cl)cc2)C(C)O)CC1=O	MT-2	92HT599	p24 / ELISA		<1 µM
CCC(=O)c1ccc(F)c([C@@H]2C[C@@H]2NC(=O)Nc2ccc(C#N)cn2)c1O	TZM-bl	LAI	β-galactosidase / luminescence	NNRTI-resistant (RT K103N)	0.0234 µM
CC(C)C1=C2[C@H]3CC[C@@H]4[C@@]5(C)CC[C@H](OC(=O)[C@@H]6C[C@H](C(=O)O)C6(C)C)C(C)(C)[C@@H]5CC[C@@]4(C)[C@]3(C)CC[C@@]2(CCNC(C)(C)c2ccccc2)CC1=O	MT-2	92HT599	p24 / ELISA		<1 µM
Cc1ncc(-c2ccc(OCCCF)cn2)c(N2CCC(C)(C)CC2)c1[C@H](OC(C)(C)C)C(=O)O	MT-2	NL4-3	luminescence		0.0039 µM
CC(=O)c1c(C)nc(-c2ccccc2)nc1NC(=O)c1ccccc1	HeLa	C-98IN022	GFP / fluorescence		1.08 µM
Cc1cc(S(N)(=O)=O)ccc1NC(=O)COc1ccc(Cl)cc1C(=O)c1cc(F)cc(C#N)c1	MT-4	IIIB	cytopathic effect / propidium iodide		<0.01 µM
CC(C)C1=C2[C@H]3CC[C@@H]4[C@@]5(C)CC[C@H](OC(=O)[C@H]6C[C@@H](C(=O)O)C6(C)C)C(C)(C)[C@@H]5CC[C@@]4(C)[C@]3(C)CC[C@@]2([C@@H](O)CNC(=O)c2ccc(N3CCS(=O)(=O)CC3)cc2)CC1=O	MT-2	92HT599	p24 / ELISA		<1 µM
Cc1cc2[nH]cnc2cc1NC(=O)COc1ccc(Cl)cc1C(=O)c1cc(F)cc(C(F)(F)F)c1	HeLa + HELA CD4+	HXB2	β-galactosidase	RT-K103N P225H	<0.01 µM
Cc1nc2ccccc2c(-c2cc(F)c3c(c2C)CCCO3)c1[C@H](OC(C)(C)C)C(=O)O	MT-4	NL4-3	luminescence	E92Q/G140S/Q148H	0.022 µM
Cc1cc(S(N)(=O)=O)ccc1NC(=O)COc1ccc(Cl)cc1C(=O)c1cc(F)cc(C(F)(F)F)c1	MT-4	IIIB	cytopathic effect / propidium iodide		<0.01 µM
Cc1ncc(-c2ccc(OCCOc3ccccn3)cn2)c(N2CCC(C)(C)CC2)c1[C@H](OC(C)(C)C)C(=O)O	MT-2	NL4-3	luminescence		0.0018 µM
Nc1nc(NC2CC2)c2ncn([C@H]3C=C[C@@H](CO)C3)c2n1	MT-2	Clinical isolate	recombinant virus assay	K103N/M184V	0.264 µM
Cc1cn(-c2ccc(C(=O)NC[C@H](O)[C@@]34CC[C@]5(C)[C@H](CC[C@@H]6[C@@]7(C)CC[C@H](OC(=O)[C@H]8C[C@@H](C(=O)O)C8(C)C)C(C)(C)[C@@H]7CC[C@]65C)C3=C(C(C)C)C(=O)C4)cc2)cn1	MT-2	92HT599	p24 / ELISA		<1 µM
Cc1cc2cn[nH]c2cc1NC(=O)COc1ccc(Cl)cc1C(=O)c1cccc(C#N)c1	HeLa + HELA CD4+	HXB2	β-galactosidase	RT-V108I	0.101–1 µM
Cc1ncc(-c2cnc(OCCOc3ccc(F)cc3Cl)c(F)c2)c(N2CCC(C)(C)CC2)c1[C@H](OC(C)(C)C)C(=O)O	MT-2	NL4-3	luminescence		0.0012 µM
CC(C)CN(C[C@@H](O)[C@H](Cc1ccccc1)NC(=O)O[C@H]1CO[C@H]2OCC[C@H]21)S(=O)(=O)c1ccc2nc(NC3CCN(C4CCCC4)CC3)sc2c1	MT-4	r13205	reporter gene		26 nM
CCCCSc1ccc(-c2cnc(C)c([C@H](OC(C)(C)C)C(=O)O)c2N2CCC(C)(C)CC2)cn1	MT-2	NL4-3	luminescence		0.005 µM
C#C[C@@]1(CO)C=C[C@H](n2cc(C)c(=O)[nH]c2=O)O1	MT-2	Clinical isolate	recombinant virus assay	K103N/Y188L	0.1615 µM
Cc1ncc(-c2ccc(N(C)CCOc3ccccc3)cn2)c(N2CCC(C)(C)CC2)c1[C@H](OC(C)(C)C)C(=O)O	MT-2	NL4-3	luminescence		0.0008 µM
Cc1cc(C#N)cc(C(=O)c2cc(Cl)ccc2OCC(=O)Nc2ccc(OCCCN3CC=CC3)cc2C)c1	HeLa + HELA CD4+	HXB2	β-galactosidase	RT-K103N	<0.01 µM
Cc1cc(C(=O)NCC[C@@]23CC[C@]4(C)[C@H](CC[C@@H]5[C@@]6(C)CC[C@H](OC(=O)[C@H]7C[C@@H](C(=O)O)C7(C)C)C(C)(C)[C@@H]6CC[C@]54C)C2=C(C(C)C)C(=O)C3)c(C)o1	MT-2	92HT599	p24 / ELISA		<1 µM
Cc1cc(C)n(CCOc2ccc(-c3cnc(C)c([C@H](OC(C)(C)C)C(=O)O)c3N3CCC(C)(C)CC3)nc2)n1	MT-2	NL4-3	luminescence		0.0076 µM

Repeating the final 3 entries:

SMILES | cell line | strain | read by | mutations | result
Cc1cc(C#N)cc(C(=O)c2cc(Cl)ccc2OCC(=O)Nc2ccc(OCCCN3CC=CC3)cc2C)c1 | HeLa + HELA CD4+ | HXB2 | β-galactosidase | RT-K103N | <0.01 µM
Cc1cc(C(=O)NCC[C@@]23CC[C@]4(C)[C@H](CC[C@@H]5[C@@]6(C)CC[C@H](OC(=O)[C@H]7C[C@@H](C(=O)O)C7(C)C)C(C)(C)[C@@H]6CC[C@]54C)C2=C(C(C)C)C(=O)C3)c(C)o1 | MT-2 | 92HT599 | p24 / ELISA |  | <1 µM
Cc1cc(C)n(CCOc2ccc(-c3cnc(C)c([C@H](OC(C)(C)C)C(=O)O)c3N3CCC(C)(C)CC3)nc2)n1 | MT-2 | NL4-3 | luminescence |  | 0.0076 µM